Measured values as given in publication PMC8922281, “Synthesis and In Vitro Biological Evaluation of Quinolinyl Pyrimidines Targeting Type II NADH-Dehydrogenase (NDH-2)” (ACS Infectious Diseases, 2022).

Amino acid sequences for entries named in this document (tags omitted). Residues count along the entry.
UniProt P95160, 2-463, added parts left off: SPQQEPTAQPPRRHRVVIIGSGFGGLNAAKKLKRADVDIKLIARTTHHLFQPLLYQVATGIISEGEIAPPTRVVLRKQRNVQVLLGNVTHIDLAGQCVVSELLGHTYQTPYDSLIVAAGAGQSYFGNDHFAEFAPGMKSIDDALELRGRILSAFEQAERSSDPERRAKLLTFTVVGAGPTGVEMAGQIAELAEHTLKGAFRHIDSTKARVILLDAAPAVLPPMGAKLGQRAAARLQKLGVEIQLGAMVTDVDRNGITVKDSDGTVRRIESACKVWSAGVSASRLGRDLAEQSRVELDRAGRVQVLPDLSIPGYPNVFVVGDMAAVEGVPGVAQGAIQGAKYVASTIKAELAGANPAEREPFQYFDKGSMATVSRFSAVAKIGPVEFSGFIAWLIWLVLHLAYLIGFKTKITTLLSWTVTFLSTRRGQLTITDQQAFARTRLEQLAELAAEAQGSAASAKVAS

Biological target: MtNDH-2 (Mycobacterium tuberculosis, UniProt P95160)
Assay type: biochemical, M. tuberculosis
Settings: same IC50 given in μg/mL to assist comparisons with MICs

## Polymyxin B [reference compound]
  MtNDH-2 IC50: 0.41 µg/mL
